Source: patent US20060234971A1 (priority 2005, published 2006)

Test system: PrP27-30 accumulation in ScN2A cells
Test: PrP27-30 accumulation in ScN2A cells
Conditions: 50 μM

CC(C)[C@H](NC(=O)OCc1ccccc1)C(=O)N[C@H](C=O)Cc1ccccc1 [MDL28170, Carbobenzoxy-valinyl-phenylalaninal]
accumulation of PrP27-30 (4 days of treatment (passage 1)): reduced | accumulation of PrP27-30 (passage 4): almost undetectable levels
